{"source": "ChEMBL document CHEMBL4495565", "about": "“Cytopathic SARS-Cov2 screening on VERO-E6 cells in a large repurposing effort” (2020)", "system": "SARS-CoV-2", "assay": "Antiviral activity determined as inhibition of SARS-CoV-2 induced cytotoxicity of VERO-6 cells at 10 uM after 48 hours exposure to 0.01 MOI SARS CoV-2 virus by high content imaging", "conditions": "Chlorocebus sabaeus, Vero C1008"}
{"molecule": "CN(C)CCS", "values": [{"measurement": "inhibition", "value": 0.09, "unit": "%"}]}
